Tested on: HIV-1 (HTLV-IIIB)
Format: cell-based
Conditions: HIV-1 (IIIB); MT-4 cells
Method: The compounds of the invention were tested in a screen by the MTT method (J. Virol. Methods […] (1988)). MT-4 cells (2.5×10^4/well) were challenged with HIV-1 (HTLV-IIIB) or HIV-2 (LAV-2 ROD) at a concentration of 100 CCID50 and incubated in the presence of various concentrations of the test compounds, which were added immediately after challenge with the virus. After 5 days culture at 37° C. in a CO2 incubator, the number of viable cells was assessed by the MTT (tetrazolium) method. […] The potential therapeutic usefulness was assessed by calculating a Selectivity Index (SI) corresponding to the ratio of CC50 to EC50.

| SMILES | SI HIV-1 (Selectivity Index, ratio of CC50 to EC50) |
| --- | --- |
| c1ccc(CCNCc2ccc(CN3CCCNCCNCCCNCC3)cc2)nc1 [AMD3497, N-[1,4,8,11-Tetraazacyclotetradecanyl-1,4-phenylenebis(methylene)]-2-(amino-ethyl)pyridine] | 138 |
| Cc1cnc(CNCc2ccc(CN3CCCNCCNCCCNCC3)cc2)cn1 [AMD3498, N-[1,4,8,11-Tetraazacyclotetradecanyl-1,4-phenylenebis(methylene)]-(2-amino-methyl-5-methyl)pyrazine] | 1.2 × 10^3 |
| c1cc(CNCc2ccc(CN3CCCNCCNCCCNCC3)cc2)ccn1 [AMD3500] | 417 |
| c1csc(CNCc2ccc(CN3CCCNCCNCCCNCC3)cc2)c1 [AMD3516, N-[1,4,8,11-Tetraazacyclotetradecanyl-1,4-phenylenebis(methylene)]-2-(amino-methyl)thiophene] | 225 |
| Nc1ccccc1CNCc1ccc(CN2CCCNCCNCCCNCC2)cc1 [AMD3517, N-[1,4,8,11-Tetraazacyclotetradecanyl-1,4-phenylenebis(methylene)]-2-amino-benzylamine] | 191 |
| c1ccc(CNCc2ccc(CN3CCCNCCNCCCNCC3)cc2)cc1 [AMD3529, N-[1,4,8,11-Tetraazacyclotetradecanyl-1,4-phenylenebis(methylene)]-benzylamine] | 325 |
| SCCNCc1ccc(CN2CCCNCCNCCCNCC2)cc1 [AMD3530, N-[1,4,8,11-Tetraazacyclotetradecanyl-1,4-phenylenebis(methylene)]-2-(amino-ethyl)mercaptan] | 350 |
| CN(Cc1ccc(CN2CCCNCCNCCCNCC2)cc1)Cc1ccccn1 [AMD3538, N-[1,4,8,11-Tetraazacyclotetradecanyl-1,4-phenylenebis(methylene)]-N-methyl-2-(aminomethyl)pyridine] | 2.0 × 10^3 |
| c1nc(CCNCc2ccc(CN3CCCNCCNCCCNCC3)cc2)c[nH]1 [AMD3543, N-[1,4,8,11-Tetraazacyclotetradecanyl-1,4-phenylenebis(methylene)]-4-(amino-ethyl)imidazole] | 1 × 10^3 |
| Nc1ccc(CNCc2ccc(CN3CCCNCCNCCCNCC3)cc2)cc1 [AMD3544, N-[1,4,8,11-Tetraazacyclotetradecanyl-1,4-Ihenylenebis(methylene)]-4-amino-benzylamine] | 317 |
